In ChEMBL document CHEMBL4011590, “Structure-activity relationship studies on 3,5-dinitrophenyl tetrazoles as antitubercular agents” (Eur J Med Chem, 2017):

Key:
Mycobacterium kansasii [1] = assay: Antimycobacterial activity against Mycobacterium kansasii CNCTC My 235/80 after 21 days by micromethod
Mycobacterium kansasii [2] = assay: Antimycobacterial activity against Mycobacterium kansasii CNCTC My 235/80 after 7 days by micromethod
Mycobacterium kansasii [3] = assay: Antimycobacterial activity against Mycobacterium kansasii isolate 6509/96 after 14 days by micromethod
Mycobacterium kansasii [4] = assay: Antimycobacterial activity against Mycobacterium kansasii CNCTC My 235/80 after 14 days by micromethod
Mycobacterium avium [5] = assay: Antimycobacterial activity against Mycobacterium avium CNCTC My 330/80 after 14 days by micromethod
Mycobacterium kansasii [6] = assay: Antimycobacterial activity against Mycobacterium kansasii isolate 6509/96 after 21 days by micromethod
Mycobacterium kansasii [7] = assay: Antimycobacterial activity against Mycobacterium kansasii isolate 6509/96 after 7 days by micromethod
Mycobacterium avium [8] = assay: Antimycobacterial activity against Mycobacterium avium CNCTC My 330/80 after 21 days by micromethod
[9] = system: Mycobacterium tuberculosis; assay: Antimycobacterial activity against Mycobacterium tuberculosis H37Rv CNCTC My 331/88 after 14 days by micromethod
[10] = system: Mycobacterium tuberculosis; assay: Antimycobacterial activity against Mycobacterium tuberculosis H37Rv CNCTC My 331/88 after 21 days by micromethod

`O=[N+]([O-])c1ccc(-n2nnnc2SCn2nnc(-c3cc([N+](=O)[O-])cc([N+](=O)[O-])c3)n2)cc1` was tested, and the MIC>99 (Mycobacterium kansasii [1]) was 16 µM (≈ 7.54 µg/mL), the MIC>99 (Mycobacterium kansasii [2]) was 4 µM (≈ 1.89 µg/mL) and the MIC>99 (Mycobacterium kansasii [3]) was 4 µM (≈ 1.89 µg/mL). It also gave an MIC>99 (Mycobacterium kansasii [4]) of 8 µM (≈ 3.77 µg/mL), an MIC>99 (Mycobacterium avium [5]) of 8 µM (≈ 3.77 µg/mL) and an MIC>99 (Mycobacterium kansasii [6]) of 8 µM (≈ 3.77 µg/mL). It also gave an MIC>99 (Mycobacterium kansasii [7]) of 2 µM (≈ 0.943 µg/mL), an MIC>99 (Mycobacterium avium [8]) of 16 µM (≈ 7.54 µg/mL) and an MIC>99 [9] of 0.125 µM (≈ 0.0589 µg/mL). It also gave an MIC>99 [10] of 0.25 µM (≈ 0.118 µg/mL).

Converted amounts (≈) assume the structure as drawn.
